Common to all, as to format: cell-based, Pseudomonas aeruginosa
The subject of data set [1] is P. aeruginosa. Description: Atomic force microscopy of bacterial surface. The settings on record: 50 µM; 1 h.
Data set [2] relates to P. aeruginosa. Description: FE-SEM of bacterial morphology. The settings on record: 50 µM; 1 h.
In data set [3] the test system is P. aeruginosa. Description: Gold uptake by bacteria, ICP-MS. Particulars: 15 μM compound, up to 8 h.
The subject of data set [4] is P. aeruginosa. Put plainly: Transcriptomic assay (RNA-seq). Particulars: 15 μM, 4 h; for down-regulated genes / genes with significantly altered transcriptional levels / up-regulated genes: vs control group.

For the molecule `CC(=O)OC[C@H]1O[C@@H]([S-])[C@H](OC(C)=O)[C@@H](OC(C)=O)[C@@H]1OC(C)=O.CCP(CC)CC.[Au+]` [Au9, auranofin], in data set [1], the “root-mean-square roughness (Rq) of the bacterial surface” value is listed as 3.8 ± 0.7 nm. The “bacterial morphology (FE-SEM)” value in data set [2] was “no significant changes”. Further, the “final cellular concentration of Au” value in data set [3] was “approximately 40 ng/mg bacterial wet weight”. In data set [4], the “KEGG pathways affected by this compound alone” value is given as 44 pathways, the down-regulated genes worked out at 734 genes, the “genes with significantly altered transcriptional levels” value is listed as 1,512 genes and the up-regulated genes was found to be 778 genes.
For the molecule NHC^Me-Au-Cl [Au1], the “root-mean-square roughness (Rq) of the bacterial surface” value in data set [1] was determined as 10.5 ± 1.5 nm. The “bacterial morphology (FE-SEM)” value in data set [2] is “wrinkling and collapsed structures”. Further, the “final cellular concentration of Au” value in data set [3] is given as “approximately 40 ng/mg bacterial wet weight”. In data set [4], the “KEGG pathways affected by this compound alone” value came out at 6 pathways, the down-regulated genes is 299 genes, the “genes with significantly altered transcriptional levels” value was 680 genes and the up-regulated genes was 381 genes.

Values taken from publication PMC9096233, “Identification of an Au(I) N-Heterocyclic Carbene Compound as a Bactericidal Agent Against Pseudomonas aeruginosa” (Frontiers in Chemistry, 2022).
